8 compounds from patent US6534523B1, “Hepatitis C inhibitor tri-peptides” (Boehringer Ingelheim (Canada) Ltd., priority 1998, dated 2003) can be followed below.

Protein sequences, listed by entry. Tags and fused reporters are not part of them. Lines headed by an entry give the natural chain unless they say otherwise; changes in a name come on top. Residues count along the entry.
UniProt P26663, 1027-1206 limits assumed: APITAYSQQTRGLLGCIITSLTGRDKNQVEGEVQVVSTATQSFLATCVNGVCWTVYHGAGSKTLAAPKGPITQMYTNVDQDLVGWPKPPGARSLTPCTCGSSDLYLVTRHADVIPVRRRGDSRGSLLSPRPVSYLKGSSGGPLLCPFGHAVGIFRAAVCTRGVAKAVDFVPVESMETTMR

Like-named read-outs stand apart in the source and are kept apart here.

For this experiment, the target named is HCV NS3 protease (UniProt P26663). As to the method:
Recombinant HCV NS3 Protease/NS4A Cofactor Peptide Radiometric Assay
The enzyme was cloned, expressed and prepared according to the protocol described in Example 36. The enzyme was stored at −80° C., thawed on ice and diluted just prior to use in the assay buffer containing the NS4A cofactor peptide.
The substrate used for the NS3 protease/NS4A cofactor peptide radiometric assay, DDIVPC-SMSYTW, is cleaved between the cysteine and the serine residues by the enzyme. The sequence DDIVPC-SMSYTW corresponds to the NS5A/NS5B natural cleavage site in which the cysteine residue in P2 has been substituted for a proline. The peptide substrate DDIVPC-SMSYTW and the tracer biotin-DDIVPC-SMS[^125I-Y]TW are incubated with the recombinant NS3 protease and the NS4A peptide cofactor KKGSVVIVGRIILSGRK (molar ratio enzyme:cofactor 1:100) in the absence or presence of inhibitors. The separation of substrate from products is performed by adding avidin-coated agarose beads to the assay mixture followed by filtration. The amount of SMS[^125I-Y]TW product found in the filtrate allows for the calculation of the percentage of substrate conversion and of the percentage of inhibition.
The enzymatic reaction was initiated by the addition of the enzyme/NS4A peptide solution and the assay mixture was incubated for 40 min at 23° C. under gentle agitation. Ten (10) μL of 0.5N NaOH were added and 10 μL 1 M MES, pH 5.8 were added to quench the enzymatic reaction.
A non-linear curve fit with the Hill model was applied to the inhibition-concentration data, and the 50% effective concentration (IC50) was calculated by the use of SAS software (Statistical Software System; SAS Institute, Inc. Cary, N.C.). […]
The NS2-NS5B-3′ non coding region was cloned by RT-PCR into the pCR®3 vector (Invitrogen) using RNA extracted from the serum of an HCV genotype 1b infected individual (provided by Dr. Bernard Willems, Hôpital St-Luc, Montréal, Québec, Canada). The NS3-NS4A DNA region was then subcloned by PCR into the pFastBac™ HTa baculovirus expression vector (Gibco/BRL). The vector sequence includes a region encoding a 28-residue N-terminal sequence which contains a hexahistidine tag. The Bac-to-Bac™ baculovirus expression system (Gibco/BRL) was used to produce the recombinant baculovirus. The full length mature NS3 and NS4A heterodimer protein (His-NS3-NS4AFL) was expressed by infecting 10^6 Sf21 cells/mL with the recombinant baculovirus at a multiplicity of infection of 0.1-0.2 at 27° C. The infected culture was harvested 48 to 64 h later by centrifugation at 4° C. The cell pellet was homogenized in 50 mM NaPO4, pH 7.5, 40% glycerol (w/v), 2 mM β-mercaptoethanol, in presence of a cocktail of protease inhibitors. His-NS3-NS4AFL was then extracted from the cell lysate with 1.5% NP-40, 0.5% Triton X-100, 0.5M NaCl, and a DNase treatment. After ultracentrifugation, the soluble extract was diluted 4-fold and bound on a Pharmacia Hi-Trap Ni-chelating column. The His-NS3-NS4AFL was eluted in a >90% pure form (as judged by SDS-PAGE), using a 50 to 400 mM imidazole gradient. The His-NS3-NS4AFL was stored at −80° C. in 50 mM sodium phosphate, pH 7.5, 10% (w/v) glycerol, 0.5 M NaCl, 0.25 M imidazole, 0.1% NP-40. It was thawed on ice and diluted just prior to use. The protease activity of His-NS3-NS4AFL was assayed in 50 mM Tris-HCl, pH 8.0, 0.25 M sodium citrate, 0.01% (w/v) n-dodecyl-β-D-maltoside, 1 mM TCEP. Five (5) μM of the internally quenched substrate anthranilyl-DDIVPAbu[C(O)—O]-AMY(3-NO2)TW-OH in presence of various concentrations of inhibitor were incubated with 1.5 nM of His-NS3-NS4AFL for 45 min at 23° C. […] The reaction was terminated with the addition of 1M MES, pH 5.8. Fluorescence of the N-terminal product was monitored on a Perkin-Elmer LS-50B fluorometer equipped with a 96-well plate reader (excitation wavelength: 325 nm; emission wavelength: 423 nm).
The following tables list compounds representative of the invention.

Take `C=C[C@H]1C[C@]1(NC(=O)[C@@H]1C[C@@H](Oc2cc(-c3ccccc3)nc3cc(OC)ccc23)CN1C(=O)[C@@H](NC(=O)OC(C)(C)C)C(C)(C)C)C(=O)O`: the IC50 turned out to be 82 nM (Table 2) and 82 nM (read-out: activity / potency (HCV NS3 protease inhibition), text comparison of P1 configuration). Where the note is “Table 3”, `C=CC1CC1(NC(=O)C1CC(Oc2nc(N3CCOCC3)nc3cc(OC)c(OC)cc23)CN1C(=O)C(NC(=O)OC(C)(C)C)C(C)(C)C)C(=O)O` (stereo not drawn) yielded an IC50 of 50 nM. In turn, `CC(C)(C)OC(=O)N[C@H](C(=O)N1C[C@H](Oc2ccnc3cc(Cl)ccc23)C[C@H]1C(=O)NC1(C(=O)O)CCC1)C(C)(C)C` showed an IC50 (Table 4) of 7900 nM. With `C=CC1CC1(NC(=O)C1CC(Sc2cc(-c3ccccc3)nc3cc(OC)ccc23)CN1C(=O)C(NC(=O)OC(C)(C)C)C(C)(C)C)C(=O)O` (stereo not drawn), the IC50 (Table 10) worked out at 320 nM.

Turning to `COc1ccc2c(OC3CC(C(=O)NC4(C(=O)O)CC4C4CC4)N(C(=O)C(NC(=O)OC(C)(C)C)C(C)(C)C)C3)cc(-c3ccccc3)nc2c1` (stereo not drawn), the IC50 (Table 3) turned out to be 153 nM.

Where the note is “Table 3”, `C=CC1CC1(NC(=O)C1CC(Oc2cc(-c3ccccc3)nc3ccc(N)cc23)CN1C(=O)C(NC(=O)OC(C)(C)C)C1CCCCC1)C(=O)O` (stereo not drawn) showed an IC50 of 660 nM. Still for that read-out and setting: under `C=CC1CC1(NC(=O)C1CC(Oc2cc(-c3ccccc3)nc3ccccc23)CN1C(=O)C(NC(C)=O)C1CCCCC1)C(=O)O` (stereo not drawn) stands 1900 nM.

In the case of `C=CC1CC1(NC(=O)C1CC(Oc2cc(-c3csc(N)n3)nc3ccccc23)CN1C(=O)C(NC(=O)OC(C)(C)C)C(C)(C)C)C(=O)O` (stereo not drawn), the IC50 (Table 6) stood at 87 nM.
